Measured values from several laboratories, pooled; numbers as filed in NIAID ChemDB.

All rows: tests on isolated targets; organism: HIV-1; protein: Integrase; method: strand transfer; measure: IC50

An empty or dashed field is not shown.

| compound | mutations | result |
|---|---|---|
| CN(C)C(=O)c1c2c(c(O)c(=O)n1C)C(=O)N(Cc1ccc(F)cc1)CC2 |  | <1 µM |
| O=C1C(=O)N(Cc2ccc(Br)cc2)c2ccccc21 |  | 600 µM |
| Cc1cc2c(cc1Cl)SC(C(=O)c1ccc(Cl)c(Cl)c1)=NS2(=O)=O | INTG-C65S | 10 µM |
| CCNC(=O)c1cn2c(c1O)C(=O)N(Cc1ccc(F)cc1)CC2 |  | <0.7 µM |
| Cc1csc2nc(C(=O)NCc3ccc(Cl)c(Cl)c3)c(O)c(=O)n12 |  | 0.001–1 µM |
| COc1ccc(C(=O)C2=NS(=O)(=O)c3cc(C)c(Cl)cc3S2)cc1 | INTG-C65S | 30 µM |
| CN1CC(O)C(C)(C)Cn2c(c3cnn(Cc4ccc(F)cc4)c(=O)c3c(O)c2=O)C1=O |  | 0.006 µM |
| COc1c(O)c2c3c(c1O)C(=O)C1(O)C(=C3C(C)=C(Cc3c(O)ccc(C(C)=O)c3O)C2=O)O[C@@H](C)C1(C)C |  | 7.9 µM |
| Cc1ccc2cc(-c3ccccc3)c3ccc(C)nc3c2n1 |  | >100 µM |
| CN(C)CCCNC(=O)c1ccc2nc(-c3ccc4nc(-c5ccc(OCCCCCCCOc6ccc(-c7nc8ccc(-c9nc%10ccc(C(=O)NCCCN(C)C)cc%10[nH]9)cc8[nH]7)cc6)cc5)[nH]c4c3)[nH]c2c1 |  | 0.09 µM |
| Cn1cc(C(=O)O)c(=O)c2cc(N)c(N3CCN(c4ccccn4)CC3)cc21 |  | 75 µM |
| O=C(O)/C(O)=C/c1cnc(OCc2ccccc2)cn1 |  | 0.61 µg/mL |
| O=C1c2c(O)c(=O)n(C34CC5CC(CC(C5)C3)C4)c(=O)n2CCN1Cc1ccc(F)cc1 |  | <10 µM |
| COC1=C(c2c(OC)cc3cc4cc(C)oc(=O)c4c(O)c3c2O)C(=O)c2c(O)cc(C)cc2C1=O |  | >100 µM |
| C=CCOc1ccc(C[C@H](NC(C)=O)C(=O)N[C@@H](CCCCN=C(N)N)C(=O)NC(CC(=O)OC)CC(=O)OC)cc1 |  | 35 µM |
| COc1ccc(/C(O)=C/C(=O)COc2c(C)cccc2Cc2cccc(Cc3cccc(Cc4cccc(C)c4O)c3OCC(=O)/C=C(\O)c3ccc(OC)cc3)c2O)cc1 |  | 21.2 µM |
| CN(Cc1ccco1)C(=O)/C=C(\O)C(=O)O |  | <70 µM |
| Cc1c(NC(=O)c2ccco2)c(=O)n(-c2ccccc2)n1C |  | >1000 µM |
| CCN(CC)C(=O)c1[nH]c(=O)c(O)c2c1CCN(Cc1ccc(F)cc1)C2=O |  | <1 µM |
| O=C(O)C(=O)/C=C(\O)c1cn(-c2ccc(F)cc2)c(=O)n(-c2ccc(F)cc2)c1=O |  | <0.7 µM |
| Cc1cc2c(cc1Cl)SC(C(=O)c1ccc(Cl)cc1)=NS2(=O)=O | INTG-C65S | 33 µM |
| Cc1cc(=O)n(-c2cccc(Cl)c2)n1C(=O)c1ccco1 |  | >1000 µM |
| CN1CCn2cc(C(=O)NCc3ccc(F)cc3)c(O)c2C1=O |  | <0.7 µM |
| CC1=C(C#N)c2nc(N)c(C#N)c(C)c2/C1=C/c1ccc(-c2ccc(Cl)c(C(=O)O)c2)o1 |  | 4 µM |
| O=C(OC(Cc1ccc(O)c(O)c1)C(=O)O)c1cc(-c2ccc(O)c(O)c2)c2cc(O)c(O)cc2c1 |  | 1.5 µM |
| Cc1cc2c(cc1Cl)SC(C(=O)c1ccccc1)=NS2(=O)=O | INTG-C65S | 90 µM |
| CC(C)(C)C1CCC(n2c(=O)c(O)c3n(c2=O)CCN(Cc2ccc(F)cc2)C3=O)CC1 |  | <10 µM |
| Cc1ccc(/C(O)=C/C(=O)COc2c(C)cc(C(C)(C)C)cc2Cc2cc(C(C)(C)C)cc(Cc3cc(C(C)(C)C)cc(Cc4cc(C(C)(C)C)cc(C)c4O)c3OCC(=O)/C=C(\O)c3ccc(C)cc3)c2O)cc1 |  | >50 µM |
| O=C(O)c1ccccc1-c1ccc(CN2C(=O)C(=O)c3ccccc32)cc1 |  | 600 µM |
| O=C(/C=C(\O)c1ncccc1C(=O)O)c1ccc(Cc2ccc(F)cc2)o1 |  | >10 µg/mL |
| N#Cc1ccccc1-c1ccc(CS(=O)(=O)c2nc3ccccc3s2)cc1 |  | 700 µM |
| C=CCOc1ccc(C[C@H](NC(C)=O)C(=O)N[C@@H](CCCCN=C(N)N)C(=O)N[C@H](CC=C)C(=O)OC)cc1 |  | 5.2 µM |
| Cc1cc(C(C)(C)C)cc(Cc2cc(C(C)(C)C)cc(Cc3cc(C(C)(C)C)cc(Cc4cc(C(C)(C)C)cc(C)c4OCC(=O)/C=C(\O)c4ccc(Cl)cc4)c3O)c2OCC(=O)/C=C(\O)c2ccc(Cl)cc2)c1O |  | >50 µM |
| O=C(O)C(=O)/C=C(\O)c1cn(-c2ccccc2)c(=O)[nH]c1=O |  | 0.5 µM |
| CCO/C(CC(=O)NCc1ccccc1)=N\Nc1ccccc1[N+](=O)[O-] |  | 37.39 µM |
| COc1ccc(/C=C2\C(=O)N(c3ccc(S(=O)(=O)O)cc3)NC2C(F)(F)F)cc1OCc1ccc(F)cc1 |  | >100 µM |
| O=C(/C=C(\O)C(=O)O)NCc1cc(F)cc(F)c1 |  | <70 µM |
| Cc1cn2c(=O)c(O)c(-c3ncc(Cc4ccc(F)cc4)s3)nc2s1 | G140S/Q148H | <0.001 µM |
| COc1ccc(/C=C2\C(=O)N(c3cccc(F)c3)NC2C(F)(F)F)cc1OCc1ccc(F)cc1 |  | 60 µM |
| CNC(=O)c1cn2c(c1O)C(=O)N(Cc1ccc(Cl)cc1)CC2 |  | <1.5 µM |
| Cc1cnc2c(ccc3c(C)c(C)c(C)nc32)c1C |  | >100 µM |
| CC(C)n1c(=O)c(O)c2n(c1=O)CCN(Cc1cccc3ccccc13)C2=O |  | <10 µM |
| COc1ccc(CNC(=O)/C=C(\O)C(=O)O)cc1 |  | <70 µM |
| COc1ccc(/C=C2\C(=O)N(c3cccc(C)c3)NC2C(F)(F)F)cc1OCc1ccc(F)cc1 |  | >100 µM |
| Cc1cc(=O)n(-c2cccc([N+](=O)[O-])c2)n1C(=O)c1ccco1 |  | >1000 µM |
| CCOC(=O)c1cn2c(c1O)C(=O)N(Cc1ccc(F)c(Cl)c1)CC2 |  | <1.5 µM |
| O=C(O)/C(O)=C/C(=O)n1c(=O)n(Cc2ccccc2)c(=O)n1Cc1ccccc1 |  | 3.3 µM |
| O=C(NC1CC1)c1cn2c(c1O)C(=O)N(Cc1ccc(F)cc1)CC2 |  | <0.7 µM |
| CN(C)C(=O)c1[nH]c(=O)c(O)c2c1CCN(Cc1ccc(F)cc1)C2=O |  | <1 µM |
| Cc1cccc(Cc2cccc(Cc3cccc(Cc4cccc(C)c4OCC(=O)/C=C(\O)c4ccc(Cl)cc4)c3O)c2OCC(=O)/C=C(\O)c2ccc(Cl)cc2)c1O |  | 5.9 µM |
| O=C(O)/C(O)=C/c1ccnc(CCc2ccccc2)c1 |  | >100 µg/mL |
| CN(Cc1cccc(Cc2ccc(F)cc2)c1)C(=O)/C=C(\O)C(=O)O |  | <70 µM |
| COC(=O)c1[nH]c(=O)c(O)c2c1CCN(Cc1ccc(F)cc1)C2=O |  | <1 µM |
| Cc1cc(CN(C)C(=O)/C=C(\O)C(=O)O)ccc1F |  | <70 µM |
| CCOC(=O)c1cn2c(c1O)C(=O)N(Cc1ccc(F)c(F)c1)CC2 |  | <1.5 µM |
| O=C1c2c(O)c(=O)n(CCCn3ccnc3)c(=O)n2CCN1Cc1ccc(F)cc1 |  | <10 µM |
| Cc1cccc(Cc2cccc(Cc3cccc(Cc4cccc(C)c4OCC(=O)/C=C(\O)c4ccccc4)c3O)c2OCC(=O)/C=C(\O)c2ccccc2)c1O |  | 16.3 µM |
| C=CCOc1ccc(C[C@H](NC(C)=O)C(=O)N[C@@H](CCCCN=C(N)N)C(=O)NCCCC(=O)OC)cc1 |  | 5.5 µM |
| Cc1cn2c(=O)c(O)c(-c3ncc(Cc4ccc(Cl)cc4)s3)nc2s1 | E92Q/N155H | 1–10 µM |
| O=C(O)C(=O)/C=C(\O)c1cn(-c2ccccc2)c(=O)n(-c2ccc(F)cc2)c1=O |  | <0.6 µM |
| O=C(NCCO)c1c(O)c2ncc(Cc3ccc(F)cc3)cc2n(-c2ccc(F)cc2)c1=O |  | 0.0074 µM |
| O=C1c2c(O)c(=O)n([C@@H]3CCCC[C@@H]3O)c(=O)n2CCN1Cc1ccc(F)cc1 |  | <10 µM |
| CNC(=O)c1[nH]c(=O)c(O)c2c1CCN(Cc1ccc(F)cc1)C2=O |  | <1 µM |
| CCO/C(CC(=O)NCc1ccc(Cl)cc1)=N\Nc1ccccc1[N+](=O)[O-] |  | >250 µM |
| Cc1cn2c(=O)c(O)c(-c3ncc(Cc4ccc(Cl)c(Cl)c4)s3)nc2s1 | G140S/Q148H | 0.001–1 µM |
| CCO/C(CC(=O)NCc1ccc(OC)cc1)=N\Nc1ccccc1[N+](=O)[O-] |  | >250 µM |
| CC(C)n1c(=O)c(O)c2n(c1=O)CCN(Cc1ccc(F)cc1Cl)C2=O |  | <10 µM |

A second listing of 9 rows from above:

compound | mutations | result
CC(C)(C)C1CCC(n2c(=O)c(O)c3n(c2=O)CCN(Cc2ccc(F)cc2)C3=O)CC1 |  | <10 µM
O=C(O)C(=O)/C=C(\O)c1cn(-c2ccc(F)cc2)c(=O)n(-c2ccc(F)cc2)c1=O |  | <0.7 µM
CCO/C(CC(=O)NCc1ccc(OC)cc1)=N\Nc1ccccc1[N+](=O)[O-] |  | >250 µM
O=C(NCCO)c1c(O)c2ncc(Cc3ccc(F)cc3)cc2n(-c2ccc(F)cc2)c1=O |  | 0.0074 µM
CC(C)n1c(=O)c(O)c2n(c1=O)CCN(Cc1ccc(F)cc1Cl)C2=O |  | <10 µM
C=CCOc1ccc(C[C@H](NC(C)=O)C(=O)N[C@@H](CCCCN=C(N)N)C(=O)NCCCC(=O)OC)cc1 |  | 5.5 µM
Cc1cn2c(=O)c(O)c(-c3ncc(Cc4ccc(Cl)cc4)s3)nc2s1 | E92Q/N155H | 1–10 µM
Cc1cn2c(=O)c(O)c(-c3ncc(Cc4ccc(Cl)c(Cl)c4)s3)nc2s1 | G140S/Q148H | 0.001–1 µM
COc1ccc(/C=C2\C(=O)N(c3cccc(F)c3)NC2C(F)(F)F)cc1OCc1ccc(F)cc1 |  | 60 µM

ICn: concentration for n% inhibition. Two numbers with a dash give a range or band. Neighbouring rows are from separate reports.